Laboratory results taken from paper PMC12474180 (Toxins, 2025).

What was measured:
Conditions in all cases: Table S1; recombinant enzyme, 30 °C
MlrA = experiment: Degradation by purified recombinant MlrA
MlrB = experiment: Degradation by purified recombinant MlrB
MlrC = experiment: Degradation by purified recombinant MlrC

C=C(C(=O)N[C@H](C)C(=O)O)N(C)C(=O)CC[C@@H](NC(=O)[C@@H](C)[C@@H](N)/C=C/C(C)=C/[C@H](C)[C@H](Cc1ccccc1)OC)C(=O)O
Degrading ability of MlrA (MlrA): -
Degrading ability of MlrB (MlrB): -
Degrading ability of MlrC (MlrC): +
